PubChem BioAssay AID624099 | ICCB-Longwood, 2012
Shown is one part, drawn at random, of about 21,000 reagents. 497 of them (2.4%) count as active. 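Higher z means weaker E2 silencing; only reporter increases were scored, and knock-downs that hurt cell survival may mask genuine repressor factors.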 Reagents against one gene are numbered here. Reagent sequences are not shown.

Assay: 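Knock-downs relieving repression by E2 of an HPV18 LCR luciferase reporter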 (primary screen)
Cell system: human C33A cervical carcinoma cells (HPV-negative) stably expressing BPV1 E2 and an HPV18 LCR luciferase reporter
Reagent: siRNA pool against human genes, 40 nM
Time to read-out: 72 h
Read-out: 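HPV18 LCR reporter light per well, converted to plate-wise z-scores that exclude control wells, and averaged over triplicate plates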
Scale: mean z-score and z-score: higher = stronger reporter signal, weaker E2 silencing
Call rule: 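Hit if mean z-score reaches 2 and two or more of three replicate z-scores also reach 2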

What did the screen give for LHFPL4 (LHFPL tetraspan subfamily member 4)?
mean z-score: -0.21; z-score, replicate A: -0.21; z-score, replicate B: -0.16; z-score, replicate C: -0.27; Call: inactive

What is on record for PRDM4 (PR/SET domain 4)?
mean z-score: 1.43; z-score, replicate A: 1.39; z-score, replicate B: 1.17; z-score, replicate C: 1.72; Call: inactive

What is on record for CGGBP1 (CGG triplet repeat binding protein 1)?
mean z-score: -0.75; z-score, replicate A: -1.27; z-score, replicate B: -0.47; z-score, replicate C: -0.51; Call: inactive

With PLSCR1 (phospholipid scramblase 1), what was measured?
mean z-score: 0.5; z-score, replicate A: 0.47; z-score, replicate B: 0.56; z-score, replicate C: 0.47; Call: inactive

Reformatted: entries from further up
PRDM4 (PR/SET domain 4)
- mean z-score: 1.43
- z-score, replicate A: 1.39
- z-score, replicate B: 1.17
- z-score, replicate C: 1.72
- Call: inactive

CGGBP1 (CGG triplet repeat binding protein 1)
- mean z-score: -0.75
- z-score, replicate A: -1.27
- z-score, replicate B: -0.47
- z-score, replicate C: -0.51
- Call: inactive

Additional reagents follow:
How did the screen score LRRFIP1 (LRR binding FLII interacting protein 1)?
mean z-score: 0.89; z-score, replicate A: 1.02; z-score, replicate B: 0.84; z-score, replicate C: 0.82; Call: inactive

For ADORA3 (adenosine A3 receptor) #1, what does the deposit list?
mean z-score: -0.16; z-score, replicate A: -0.28; z-score, replicate B: -0.2; z-score, replicate C: -0.01; Call: inactive

For ADORA3 (adenosine A3 receptor) #2, what was measured?
mean z-score: 0.59; z-score, replicate A: 0.73; z-score, replicate B: 0.51; z-score, replicate C: 0.54; Call: inactive

What did the screen give for WAC (WW domain containing adaptor with coiled-coil)?
mean z-score: -0.43; z-score, replicate A: -0.09; z-score, replicate B: -0.36; z-score, replicate C: -0.85; Call: inactive

With LNPK (lunapark, ER junction formation factor), what does the deposit list?
mean z-score: 0.17; z-score, replicate A: 0.32; z-score, replicate B: 0.02; z-score, replicate C: 0.16; Call: inactive

With TF (transferrin), how do the results read?
mean z-score: 1.31; z-score, replicate A: 1.43; z-score, replicate B: 0.8; z-score, replicate C: 1.69; Call: inactive

How did the screen score GABRB1 (gamma-aminobutyric acid type A receptor subunit beta1)?
mean z-score: -0.04; z-score, replicate A: -0.19; z-score, replicate B: -0.12; z-score, replicate C: 0.2; Call: inactive

What is on record for VTI1A (vesicle transport through interaction with t-SNAREs 1A) #1?
mean z-score: 0.83; z-score, replicate A: 0.15; z-score, replicate B: 0.82; z-score, replicate C: 1.52; Call: inactive

With VTI1A (vesicle transport through interaction with t-SNAREs 1A) #2, what does the deposit list?
mean z-score: 0.07; z-score, replicate A: -0.59; z-score, replicate B: 0.19; z-score, replicate C: 0.62; Call: inactive
